Results of unrelated studies side by side (data: NIAID ChemDB).

Common to all: growth or infection tests; species: Mycobacterium smegmatis; endpoint: MIC

Neighbouring rows are from separate reports. a–b is a range or a potency band. Blank or dashed fields: not listed here.

smiles | read by | strain or isolate | result
COc1ccc2[nH]c(=O)c(-c3ccccc3)c(O)c2c1 | luminescence | MC2 155 lux | 23.2 µM
CCCCCCCCCCOc1cc(-c2ccc(F)cc2)nc2ccccc12 | - | ATCC 607 | 250 µg/mL
Clc1ccc(-n2cc(C3CC(c4ccc5c(c4)CCO5)=NN3)c(-c3ccccc3)n2)cc1 | resazurin | - | 15.6 µg/mL
CN1CCN(c2cc3c(cc2F)c(=O)c(C(=O)O)c2n3CS2)CC1c1ccccc1 | agar | ATCC 14468 MC2 | 58.76 µM
Cc1ccc(-c2nc(C)c(-c3cn4cc(Br)ccc4n3)s2)cc1 | broth dilution / absorbance | mc2155 | >50 µg/mL
CCCCCCCCCCCCCCCOc1cc(-c2ccc(F)cc2)nc2ccccc12 | - | ATCC 607 | 250 µg/mL
CN(C)C(=O)CC(CSc1ccccc1)Nc1c(C(=O)N/N=C/c2ccc(Br)s2)cnc2cccc(C(F)(F)F)c12 | resazurin | ATCC 19420 | >100 µg/mL
CSCC[C@H](NS(=O)(=O)c1ccc(C)cc1)C(=O)N/N=C/c1ccc(N2CCCCC2)cc1 | broth dilution / visual reading | ATCC 607 | >250 µg/mL
O=C(O)c1c2n(c3cc(N4CCSCC4)c([N+](=O)[O-])cc3c1=O)CS2 | agar | ATCC 14468 MC2 | 132 µM
COc1ccc(CC2C3=C(CCCC3)CCN2c2cc3c(=O)c(C(=O)O)c4n(c3cc2[N+](=O)[O-])CS4)cc1 | agar | ATCC 14468 | 11.71 µM
COc1c(N2CCC(O)(c3ccc(Cl)cc3)CC2)c(F)cc2c(=O)c(C(=O)O)cn(C3CC3)c12 | agar | ATCC 14468 | 12.84 µM
CCCCCCCCCCC(CCCCCCCCCC)NC(=O)NC(CCC(=O)O)(CCC(=O)O)CCC(=O)O | - | mc155 | 27 µg/mL
CCCC[P+](c1ccccc1)(c1ccccc1)c1ccccc1 | broth dilution | mc2155 | >128 µg/mL
CCCC[C@@H](CN[C@H](CN)CCN)NCc1cccc2ccccc12 | absorbance | mc2155 | 50 µM
CSCC[C@H](NS(=O)(=O)c1ccc(C)cc1)C(=O)N/N=C/c1cc(-c2ccccc2)cs1 | broth dilution / visual reading | ATCC 607 | >250 µg/mL
CCCCCCCCCCCCCCCCCCCCCCCC(=O)NC(CCC(=O)O)(CCC(=O)O)CCC(=O)O | - | mc155 | 54 µg/mL
CC(C)(C)NC(=O)C1c2ccccc2CCN1c1cc2c(cc1[N+](=O)[O-])c(=O)c(C(=O)O)c1n2CS1 | agar | ATCC 14468 MC2 | 98.32 µM
COc1c(N2CC(C)OC(C)C2)c(F)cc2c(=O)c(C(=O)O)cn(C3CC3)c12 | agar | ATCC 14468 | 16.01 µM
O=C(O)c1c2n(c3cc([N+](=O)[O-])c(N4CCC(N5CCCCC5)CC4)cc3c1=O)CS2 | agar | ATCC 14468 | 112 µM
CSCC[C@H](NS(=O)(=O)c1ccc(C)cc1)C(=O)N/N=C/C1CCCCC1 | broth dilution / visual reading | ATCC 607 | >250 µg/mL
COc1cc2c(cc1OC)CN(c1cc3c(=O)c(C(=O)O)c4n(c3cc1F)CS4)CC2 | agar | ATCC 14468 | 113 µM
COc1ccc(/C=N/NC(=O)c2cnc3cc(F)ccc3c2NC(CSc2ccccc2)CC(=O)N(C)C)c(F)c1 | resazurin | ATCC 19420 | >100 µg/mL
CC(C)(C)OC(=O)NC1C2CN(c3cc4c(cc3F)c(=O)c(C(=O)O)c3n4CS3)CC21 | agar | ATCC 14468 MC2 | 55.87 µM
CSCC[C@H](NS(=O)(=O)c1ccc(C)cc1)C(=O)N/N=C/c1c(Cl)cccc1Cl | broth dilution / visual reading | ATCC 607 | >250 µg/mL
CCCCNC(=O)c1cc([N+](=O)[O-])cc([N+](=O)[O-])c1 | visual reading | mc2155 | 4 µg/mL
COc1ccc(-c2nn(-c3ccc(Cl)cc3)cc2C2CC(c3ccc(-c4ccccc4)cc3)=NN2)cc1 | resazurin | - | 15.6 µg/mL
COc1c(N2CCc3ccccc3C2C(=O)NC(C)(C)C)c(F)cc2c(=O)c(C(=O)O)cn(C3CC3)c12 | agar | ATCC 14468 | 49.26 µM
NNC(=O)c1ccncc1 | agar | ATCC 14468 MC2 | 45.57 µM
CCCCCCCCCCCN(CCCCCCCCCCC)C(=O)NC(CCC(=O)O)(CCC(=O)O)CCC(=O)O | - | mc155 | 72 µg/mL
O=C(NCCOCCOCCNC(=O)c1ccc2c(c1)B(O)OC2)c1ccc2c(c1)B(O)OC2 | visual reading / absorbance | mc2155 | 390–780 µM
CCc1cc(C(N)=S)ccn1 | - | mc2651 | >80 µg/mL
CCCCCCCCCCCOc1cc(-c2ccccc2F)nc2ccccc12 | - | ATCC 607 | 500 µg/mL
COc1c(N2CCN(Cc3ccc4c(c3)OCO4)CC2)c(F)cc2c(=O)c(C(=O)O)cn(C3CC3)c12 | agar | ATCC 14468 | 3.15 µM
C[C@@H]1CN(c2c(F)c(N)c3c(=O)c(C(=O)O)cn(C4CC4)c3c2F)C[C@H](C)N1 | broth dilution / visual reading | ATCC 607 | 0.1 µg/mL
Cc1ccc(-c2nc(C)c(-c3cn4ccccc4n3)s2)cc1 | broth dilution / absorbance | mc2155 | >50 µg/mL
CN(C)C(=O)CC(CSc1ccccc1)Nc1c(C(=O)N/N=C/c2cccnc2)cnc2cc(F)ccc12 | resazurin | ATCC 19420 | >100 µg/mL
CSCC[C@H](NS(=O)(=O)c1ccc(C)cc1)C(=O)N/N=C/c1ccc(Br)o1 | broth dilution / visual reading | ATCC 607 | >250 µg/mL
COc1ccc(-c2nn(-c3ccc(Cl)cc3)cc2C2CC(c3ccc4c(c3)CCO4)=NN2)cc1 | resazurin | - | 500 µg/mL
CC(C)(C)NC(=O)C1c2ccccc2CCN1c1cc2c(=O)c(C(=O)O)c3n(c2cc1[N+](=O)[O-])CS3 | agar | ATCC 14468 | 98.32 µM
CN1CCN(c2cc3c(cc2[N+](=O)[O-])c(=O)c(C(=O)O)c2n3CS2)CC1c1ccccc1 | agar | ATCC 14468 MC2 | 52.25 µM
CCCCCCCCCCCCOc1cc(-c2ccccc2F)nc2ccccc12 | - | ATCC 607 | 500 µg/mL
CSCC[C@H](NS(=O)(=O)c1ccc(C)cc1)C(=O)N/N=C/c1ccc(-c2ccc(Cl)cc2)o1 | broth dilution / visual reading | ATCC 607 | >250 µg/mL
COc1ccc(-c2nn(-c3ccc(Cl)cc3)cc2C2CC(c3ccc(C)o3)=NN2)cc1 | resazurin | - | 62.5 µg/mL
CCCCCCCCCCCCCCCCCCCOC(=O)NC(CCC(=O)O)(CCC(=O)O)CCC(=O)O | - | mc155 | 5 µg/mL
Clc1ccc(-c2nn(-c3ccc(Cl)cc3)cc2C2CC(c3ccc4c(c3)CCO4)=NN2)cc1 | resazurin | - | 62.5 µg/mL
CCCCCCCCCCCCCOc1cc(-c2cccc(F)c2)nc2ccccc12 | - | ATCC 607 | 125 µg/mL
O=C(O)c1c2n(c3cc(F)c(N4CCN(C(=O)C5COc6ccccc6O5)CC4)cc3c1=O)CS2 | agar | ATCC 14468 | 50.25 µM
COc1ccc(CC2C3=C(CCCC3)CCN2c2c(F)c(N)c3c(=O)c(C(=O)O)cn(C4CC4)c3c2OC)cc1 | agar | ATCC 14468 | 5.72 µM
CSCC[C@H](NS(=O)(=O)c1ccc(C)cc1)C(=O)N/N=C/c1ccc(Cl)cc1Cl | broth dilution / visual reading | ATCC 607 | >250 µg/mL
CCCCCCCCCOc1cc(-c2ccc(F)cc2)nc2ccccc12 | - | ATCC 607 | 125 µg/mL
COc1cc(C(=O)NS(=O)(=O)c2ccccc2C)ccc1Cc1cn(C)c2ccc(NC(=O)OC3CCCC3)cc12 | MTT | - | 6 µM
CCCCCCCOc1cc(-c2ccc(F)cc2)nc2ccccc12 | - | ATCC 607 | 250 µg/mL
COc1c(N2CCN(C(c3ccccc3)c3ccc(Cl)cc3)CC2)c(F)c([N+](=O)[O-])c2c(=O)c(C(=O)O)cn(C3CC3)c12 | agar | ATCC 14468 | 10.29 µM
Cc1nc(-c2ccc(F)cc2)sc1-c1cn2cc(Br)ccc2n1 | broth dilution / absorbance | mc2155 | 20.8 µg/mL

3 of the rows above, restated:

smiles | read by | strain or isolate | result
CSCC[C@H](NS(=O)(=O)c1ccc(C)cc1)C(=O)N/N=C/c1ccc(N2CCCCC2)cc1 | broth dilution / visual reading | ATCC 607 | >250 µg/mL
COc1ccc(-c2nn(-c3ccc(Cl)cc3)cc2C2CC(c3ccc4c(c3)CCO4)=NN2)cc1 | resazurin | - | 500 µg/mL
O=C(O)c1c2n(c3cc([N+](=O)[O-])c(N4CCC(N5CCCCC5)CC4)cc3c1=O)CS2 | agar | ATCC 14468 | 112 µM